Compound potency records, mixed from different reports. Data source: NIAID ChemDB in PubChem.

Shared fields: growth or infection tests; organism: HIV-1; read-out: EC50

Neighbouring rows are from separate reports.

CC(=O)Nc1cccc(-c2ccc(=O)c(O)c(O)c2O)c1 ; strain: IIIB ; cell line: MT-4 ; method: cytopathic effect / MTT ; value: >8 µM
Clc1ccc(-n2cccc2)cc1 ; strain: IIIB ; cell line: PBMC ; method: p24 ; value: >80 µg/mL
CC(C)(C)NC(=O)[C@@H]1C[C@@H]2CCCC[C@@H]2CN1C[C@@H](OC(=O)COc1ccc(C[C@H](N)C(=O)O)cc1)[C@H](Cc1ccccc1)NC(=O)[C@H](CC(N)=O)NC(=O)c1ccc2ccccc2n1 ; strain: LAI ; cell line: CEM ; method: RT activity ; value: 0.033 µM
Nc1ccn([C@H]2C=C[C@@H](CO)S2)c(=O)n1 ; strain: IIIB ; cell line: HeLa + HELA CD4+ ; value: 23 µM
COC(=O)[C@H](C)NP(=O)(OC[C@H]1C/C1=C/n1cnc2c(=O)[nH]c(N)nc21)Oc1ccccc1 ; strain: LAI ; cell line: MT-2 ; method: cytopathic effect / MTT ; value: >76 µM
O=c1cccc(O)c(O)c1O ; strain: IIIB ; cell line: MT-4 ; method: cytopathic effect / MTT ; value: >3 µM
C=CCN(C(=O)OCc1ccc([N+](=O)[O-])cc1)C1CCN(CCC(CN(C)S(=O)(=O)c2ccccc2)c2ccccc2)CC1 ; strain: YU2 ; cell line: PBMC ; method: p24 ; value: <0.2 µM
COC(=O)[C@H](C)NP(=O)(OCC1C/C1=C\n1cnc2c(N)ncnc21)Oc1ccccc1 ; strain: LAI ; cell line: MT-2 ; method: cytopathic effect / MTT ; value: 0.66 µM
Nc1nc2c(ncn2[C@H]2CO[C@@H](CO)O2)c(=O)[nH]1 ; cell line: MT-2 ; changes: RT-Q151M V75I ; method: cytopathic effect / MTT ; value: >50 µM
CC(C)Nc1cccnc1N1CCN(C(=O)c2cc3cc(NS(C)(=O)=O)ccc3[nH]2)CC1 ; strain: IIIB ; cell line: HT4lacZ-1/IIIB + HT4 LacZ-1 ; method: syncytia ; value: 0.014 µM
O=c1[nH]cnc2c1ncn2[C@H]1CC[C@@H](CO)O1 ; strain: LAI ; cell line: MT-2 ; method: p24 ; value: 3.7 µM
COP(=O)(N[C@H]1C[C@H](n2cc(C)c(=O)[nH]c2=O)O[C@@H]1CO)OC ; strain: LAV ; cell line: PBMC ; value: >100 µM
Nc1nc(=O)n([C@@H]2C=C[C@H](CO)S2)cc1F ; strain: IIIB ; cell line: HeLa + HELA CD4+ ; value: 0.4 µM
Cc1cn([C@H]2C=C[C@@H](CO)O2)c(=O)[nH]c1=O ; cell line: MT-2 ; changes: RT-Q151M V75I ; method: cytopathic effect / MTT ; value: 18 µM
COC(=O)[C@H](C)NP(=O)(OC[C@H]1C/C1=C/n1cnc2c(N)nc(N)nc21)Oc1ccccc1 ; strain: LAI ; cell line: MT-2 ; method: cytopathic effect / MTT ; value: 0.034 µM
O=c1ccccc(-c2cncnc2)c1O ; strain: LAI ; cell line: CEM + CEM-SS ; method: RT activity ; value: 40 µM
Cc1cn([C@H]2C=C[C@@H](CO)O2)c(=O)[nH]c1=O ; strain: LAV ; cell line: PBMC ; method: RT activity ; value: 0.0088 µM
Cc1ccnc2c1N(CN1CCN(c3ccc(F)cc3)CC1)C(=O)c1cccnc1N2C1CC1 ; cell line: CEM ; method: cytopathic effect / XTT ; value: 0.0318 µM
Nc1ccn([C@H]2CC[C@@H](CO)S2)c(=O)n1 ; strain: IIIB ; cell line: HeLa + HELA CD4+ ; value: 38 µM
Cc1cn([C@H]2CC[C@@H](CO)O2)c(=O)[nH]c1=O ; strain: LAV ; cell line: PBMC ; method: RT activity ; value: 0.17 µM
CC(=O)Oc1cc(OC(C)=O)c(OC(C)=O)c(=O)c(OC(C)=O)c1 ; strain: LAI ; cell line: CEM + CEM-SS ; method: RT activity ; value: 5 µM
Nc1nc2c(ncn2[C@H]2CC[C@@H](CO)O2)c(=O)[nH]1 ; strain: IIIB ; cell line: MT-4 ; method: cytopathic effect / trypan blue ; value: 15.4 µM
Cc1ccnc2c1NC(=O)c1cccnc1N2C1CC1 ; cell line: MT-4 ; changes: RT-D67N K70R T215Y K219Q L100I ; value: <0.4 µM
Cc1ccnc2c1N(CN1CCN(c3cccc(Cl)c3)CC1)C(=O)c1cccnc1N2C1CC1 ; cell line: CEM ; method: cytopathic effect / XTT ; value: 0.0318 µM
CCCCCCCCCCCCCCCC(=O)OCC(COC(=O)CCCCCCCCCCCCCCC)OC(=O)CCC(=O)O[C@H](CN1C[C@H]2CCCC[C@H]2C[C@H]1C(=O)NC(C)(C)C)[C@H](Cc1ccccc1)NC(=O)[C@H](CC(N)=O)NC(=O)c1ccc2ccccc2n1 ; strain: IIIB ; cell line: MT-4 ; method: cytopathic effect / MTT ; value: 3.5 µM
CCN(C(=O)OCc1ccccc1)C1CCN(CC[C@H](CN(C)S(=O)(=O)c2ccccc2)c2cccc(Cl)c2)CC1 ; strain: YU2 ; cell line: PBMC ; method: p24 ; value: <13 µM
Cc1cn([C@H]2C[C@H](N=[N+]=[N-])[C@@H](CO)O2)c(=O)[nH]c1=O ; strain: IIIB ; cell line: MT-4 ; method: cytopathic effect / MTT ; value: 0.01 µM
Cc1cn([C@H]2C[C@H](OC(N)=S)[C@@H](CO)O2)c(=O)[nH]c1=O ; strain: LAV ; cell line: PBMC ; value: >100 µM
CC(C)(C)NC(=O)[C@@H]1C[C@@H]2CCCC[C@@H]2CN1C[C@@H](OC(=O)[C@H](Cc1ccccc1)NC(=O)OC(C)(C)C)[C@H](Cc1ccccc1)NC(=O)[C@H](CC(N)=O)NC(=O)c1ccc2ccccc2n1 ; strain: IIIB ; cell line: MT-4 ; method: cytopathic effect / MTT ; value: 0.197 µM
Nc1ccn([C@@H]2CC[C@H](CO)S2)c(=O)n1 ; strain: IIIB ; cell line: HeLa + HELA CD4+ ; value: >50 µM
CCCCCCCC/C=C\CCCCCCCC(=O)OCC(COC(=O)CCCCCCC/C=C\CCCCCCCC)OC(=O)CCC(=O)O[C@H](CN1C[C@H]2CCCC[C@H]2C[C@H]1C(=O)NC(C)(C)C)[C@H](Cc1ccccc1)NC(=O)[C@H](CC(N)=O)NC(=O)c1ccc2ccccc2n1 ; strain: LAI ; cell line: CEM ; method: RT activity ; value: 0.8 µM
Cc1ccnc2c1N(CN1CCN(c3ccc([N+](=O)[O-])cc3)CC1)C(=O)c1cccnc1N2C1CC1 ; cell line: CEM ; method: cytopathic effect / XTT ; value: 0.12 µM
C=CCN(C(=O)OCc1ccc([N+](=O)[O-])cc1)C1CCN(CC[C@H](CN(C)S(=O)(=O)c2ccccc2)c2ccccc2)CC1 ; strain: YU2 ; cell line: PBMC ; method: p24 ; value: <0.2 µM
CCCCCCCC/C=C\CCCCCCCC(=O)O[C@@H]1Cc2ccccc2[C@@H]1NC(=O)[C@H](Cc1ccccc1)C[C@H](O)CN1CCN(Cc2cccnc2)C[C@H]1C(=O)NC(C)(C)C ; strain: LAI ; cell line: CEM ; method: RT activity ; value: 0.11 µM
CCCN(C(=O)Nc1ccccc1)C1CCN(CCC(CN(C)S(=O)(=O)c2ccccc2)c2ccccc2)CC1 ; strain: YU2 ; cell line: PBMC ; method: p24 ; value: <6 µM
CC(C)(C)NC(=O)[C@@H]1C[C@@H]2CCCC[C@@H]2CN1C[C@@H](OC(=O)CCCCOc1ccc(C[C@H](N)C(=O)O)cc1)[C@H](Cc1ccccc1)NC(=O)[C@H](CC(N)=O)NC(=O)c1ccc2ccccc2n1 ; strain: LAI ; cell line: CEM ; method: RT activity ; value: 0.039 µM

The first 3 rows once more:

CC(=O)Nc1cccc(-c2ccc(=O)c(O)c(O)c2O)c1 ; strain: IIIB ; cell line: MT-4 ; method: cytopathic effect / MTT ; value: >8 µM
Clc1ccc(-n2cccc2)cc1 ; strain: IIIB ; cell line: PBMC ; method: p24 ; value: >80 µg/mL
CC(C)(C)NC(=O)[C@@H]1C[C@@H]2CCCC[C@@H]2CN1C[C@@H](OC(=O)COc1ccc(C[C@H](N)C(=O)O)cc1)[C@H](Cc1ccccc1)NC(=O)[C@H](CC(N)=O)NC(=O)c1ccc2ccccc2n1 ; strain: LAI ; cell line: CEM ; method: RT activity ; value: 0.033 µM

ECn is the concentration giving n% inhibition of infection, replication or growth.